Anti-infective test results gathered from many reports (values: NIAID ChemDB through PubChem).

All rows: tests in culture; organism: HIV-1; method: syncytia; measure: inhibition

Percent inhibition refers to the dose given; in toxicity tests it is the harm to the cells. Blank or dashed fields: not listed here. Rows are shuffled and stem from different studies.

structure | changes | strain or isolate | tested at | cell line | value
Cc1c2ccnc(Cl)c2cc2c3cn(C)ccc-3nc12 |  |  | 0.1 µM | MT-2 | 5%
OCCCCCCOc1ccc(-c2ccccc2)cc1 |  | GB8 | 7.5 µg/mL | JM | 72%
Nc1ncnc2c1ncn2[C@@H]1O[C@H](COP(=O)(O)O[C@@H]2[C@H](O)[C@@H](COP(=O)(O)O[C@@H]3[C@H](O)[C@@H](CO)O[C@H]3n3cnc4c(N)ncnc43)O[C@H]2n2cnc3c(N)ncnc32)[C@@H](O)[C@H]1O |  |  | 300 µM | SupT1 + Sup-T1 | 75%
C=CCCOC(=O)N1C=CC(C#N)C(C(C)=O)=C1 |  | IIIB | 50 µM | MOLT-3 | 0%
CC(=O)Nc1ccn([C@H]2CS[C@@H](CO)O2)c(=O)n1 |  | BRU | 100 µM | MT-4 | 100%
C=C1CC[C@@H](OC(=O)CCC(=O)OCC2CC(OP(=O)(O)OCC3CC(OP(=O)(O)OCC4CC(O)C(n5cnc6c(N)ncnc65)O4)C(n4cnc5c(N)ncnc54)O3)C(n3cnc4c(N)ncnc43)O2)C/C1=C/C=C1\CCC[C@]2(C)[C@@H]([C@@H](C)/C=C/[C@H](C)C(C)C)CC[C@@H]12 |  | IIIB | 300 µM | SupT1 + Sup-T1 | 97.5%
Nc1ncnc2c1ncn2[C@@H]1O[C@H](COP(=O)([O-])O[C@@H]2[C@H](O)[C@@H](COP(=O)([O-])O[C@@H]3[C@H](O)[C@@H](COP([O-])(=S)O[C@@H]4[C@H](O)[C@@H](CO)O[C@H]4n4cnc5c(N)ncnc54)O[C@H]3n3cnc4c(N)ncnc43)O[C@H]2n2cnc3c(N)ncnc32)[C@@H](O)[C@H]1O |  | IIIB | 300 µM | PBL | 1%
CCCCCCCCCCCCCCCC(=O)NCC1OC(n2cnc3c(N)ncnc32)C(OP(=O)(O)OCC2OC(n3cnc4c(N)ncnc43)C(OP(=O)(O)OCCOCn3cnc4c(N)ncnc43)C2O)C1O |  | IIIB | 100 µM | SupT1 + Sup-T1 | 88.5%
CCCCCCCCCCCCCCCCOCC(COC(=O)CCC(=O)OCC1CC(OP(=O)(O)OCC2CC(OP(=O)(O)OCC3CC(O)C(n4cnc5c(N)ncnc54)O3)C(n3cnc4c(N)ncnc43)O2)C(n2cnc3c(N)ncnc32)O1)OCCCCCCCCCCCCCCCC |  | IIIB | 300 µM | SupT1 + Sup-T1 | 96.7%
C=C(C)[C@@H]1CC[C@]2(C(=O)NCCCCCCCC(=O)N[C@@H](CC(C)C)[C@@H](O)CC(=O)O)CC[C@]3(C)[C@H](CC[C@@H]4[C@@]5(C)CC[C@H](O)C(C)(C)[C@@H]5CC[C@]43C)[C@@H]12 | GP41-A101S | LAI | 10 µM | HeLa P4 + HeLa | >99%
Nc1ncnc2c1ncn2COCCOP(=O)(O)O[C@@H]1C[C@@H](COP(=O)(O)O[C@@H]2C[C@@H](COP(=O)(O)O[C@@H]3C[C@@H](CO)O[C@H]3n3cnc4c(NCc5ccccc5)ncnc43)O[C@H]2n2cnc3c(N)ncnc32)O[C@H]1n1cnc2c(N)ncnc21 |  |  | 0.1 µM | SupT1 + Sup-T1 | 44%
Nc1ncnc2c1ncn2C1CC(F)C(COP(=O)(O)OC2C(O)C(COP(=O)(O)OC3C(O)C(CO)OC3n3cnc4c(N)ncnc43)OC2n2cnc3c(N)ncnc32)O1 |  |  | 300 µM | SupT1 + Sup-T1 | 85%
C=C(C)[C@@H]1CC[C@]2(C(=O)NCCCCCCCC(=O)N[C@@H](CC(C)C)[C@@H](O)CC(=O)O)CC[C@]3(C)[C@H](CC[C@@H]4[C@@]5(C)CC[C@H](O)C(C)(C)[C@@H]5CC[C@]43C)[C@@H]12 | R22A | LAI-R(GP41-R22A) | 10 µM | HeLa P4 + HeLa | >99%
CC(C)C[C@H](NC(=O)[C@H](C)NC(=O)C[C@H](O)[C@H](CC(C)C)NC(=O)[C@@H](NC(=O)[C@H](Cc1ccc(O)cc1)NC(=O)OCc1ccccc1)C(C)C)[C@@H](O)CC(N)=O |  |  | 40 µM | MT-4 | 0%
C=C(C)OC(=O)N1c2ccc3ccccc3c2C=CC1C#N |  | IIIB | 50 µM | MOLT-3 | 40%
C[C@H](CCC(=O)N[C@@H](Cc1cc(I)c(O)cc1I)C(=O)O)[C@H]1CC[C@H]2[C@@H]3CCC4C[C@H](O)CC[C@]4(C)[C@H]3C[C@H](O)[C@]12C |  | IIIB | 0.001 µg/mL | H9 | 67.4%
CC(=O)C1=CN(C(=O)Oc2ccc(Cl)cc2)C=CC1C#N |  | IIIB | 50 µM | MOLT-3 | 0%
CCCCCCCCCCCCCCCCOCC(COC(=O)CCC(=O)OC1CC(COP(=O)(O)OC2CC(COP(=O)(O)OC3CC(CO)OC3n3cnc4c(N)ncnc43)OC2n2cnc3c(N)ncnc32)OC1n1cnc2c(N)ncnc21)OCCCCCCCCCCCCCCCC |  | IIIB | 300 µM | SupT1 + Sup-T1 | 93.3%
Nc1ccn([C@@H]2CS[C@H](CO)O2)c(=O)n1 |  | BRU | 0.1 µM | MT-4 | 100%
CC(=O)N[C@@H](Cc1c[nH]c2ccccc12)C(=O)N[C@H](C(=O)N[C@@H](CC(C)C)[C@@H](O)CC(=O)N[C@H](C(=O)N[C@H](C(=O)OCc1ccccc1)C(C)C)C(C)C)C(C)C |  |  | 40 µM | MT-4 | 0%
Nc1ncnc2c1ncn2[C@@H]1O[C@H](COP(=O)(O)O[C@@H]2[C@H](O)[C@@H](COP(=O)(O)O[C@@H]3[C@H](O)[C@@H](CO)O[C@H]3n3cnc4c(N)ncnc43)O[C@H]2n2cnc3c(N)ncnc32)[C@@H](O)[C@H]1O |  |  | 300 µM | SupT1 + Sup-T1 | 67%
C=CCOC(=O)N1c2ccc3ccccc3c2C=CC1C#N |  | IIIB | 50 µM | MOLT-3 | 0%
CCCCCCCCCCCCCCCC(=O)NCC1CC(OP(=O)(O)OCC2CC(OP(=O)(O)OCC3CC(O)C(n4cnc5c(N)ncnc54)O3)C(n3cnc4c(N)ncnc43)O2)C(n2cnc3c(N)ncnc32)O1 |  | IIIB | 100 µM | SupT1 + Sup-T1 | 88.5%
CC[C@H](C)[C@H](NC(=O)C[C@H](O)[C@H](CC(C)C)NC(=O)[C@@H](NC(=O)[C@H](Cc1ccc(O)cc1)NC(=O)OCc1ccccc1)C(C)C)C(=O)N[C@@H](Cc1ccccc1)C(=O)O |  |  | 40 µM | MT-4 | 0%
CCOC(=O)N1C=CC(C#N)C(C(C)=O)=C1 |  | IIIB | 50 µM | MOLT-3 | 0%
O=P(O)(O)OP(=O)(O)OP(=O)(O)OP(=O)(O)O |  | IIIB | 160 µg/mL | MOLT-4/MOLT-3 | 12.5%
COC(=O)C[C@H](O)C(CC(C)C)NC(=O)[C@H](C)NC(=O)C[C@H](O)[C@H](Cc1ccc(O)cc1)NC(=O)[C@@H](NC(=O)[C@H](Cc1ccc(O)cc1)NC(=O)OCc1ccccc1)C(C)C |  |  | 40 µM | MT-4 | 0%
CC(CCC(=O)N[C@@H](Cc1ccc(O)cc1)C(=O)O)C1CCC2C3CCC4C[C@H](O)CCC4(C)C3C[C@H](O)C12C |  | IIIB | 0.01 µg/mL | H9 | 84.8%
COC(=O)C[C@H](O)C(CC(C)C)NC(=O)[C@H](C)NC(=O)CC(O)C(CC1CCCCC1)NC(=O)[C@@H](NC(=O)[C@H](Cc1ccc(O)cc1)NC(=O)OCc1ccccc1)C(C)C |  |  | 40 µM | MT-4 | 0%
CC1=C(/C=C/C=C/C=C/C=C/C(=O)Nc2ccn([C@H]3CS[C@@H](CO)O3)c(=O)n2)C(C)(C)CCC1 |  | BRU | 10 µM | MT-4 | 100%
COc1ccc([C@@H]2CC(=O)c3c(O)cc(O[C@@H]4O[C@H](CO[C@@H]5O[C@@H](C)[C@H](OP(=O)(O)O)[C@@H](OP(=O)(O)O)[C@H]5O)[C@@H](OP(=O)(O)O)[C@H](OP(=O)(O)O)[C@H]4O)cc3O2)cc1O |  | IIIS | 500 µg/mL | MT-2 | 100%

For reference, 3 entries again:

structure	changes	strain or isolate	tested at	cell line	value
Nc1ncnc2c1ncn2[C@@H]1O[C@H](COP(=O)([O-])O[C@@H]2[C@H](O)[C@@H](COP(=O)([O-])O[C@@H]3[C@H](O)[C@@H](COP([O-])(=S)O[C@@H]4[C@H](O)[C@@H](CO)O[C@H]4n4cnc5c(N)ncnc54)O[C@H]3n3cnc4c(N)ncnc43)O[C@H]2n2cnc3c(N)ncnc32)[C@@H](O)[C@H]1O		IIIB	300 µM	PBL	1%
CCCCCCCCCCCCCCCC(=O)NCC1CC(OP(=O)(O)OCC2CC(OP(=O)(O)OCC3CC(O)C(n4cnc5c(N)ncnc54)O3)C(n3cnc4c(N)ncnc43)O2)C(n2cnc3c(N)ncnc32)O1		IIIB	100 µM	SupT1 + Sup-T1	88.5%
CCOC(=O)N1C=CC(C#N)C(C(C)=O)=C1		IIIB	50 µM	MOLT-3	0%